Results on one molecule are retold here after patent US20220387578A1, “Peptide vaccine based on a new universal influenza a hemagglutinin head domain epitope and human monoclonal antibodies binding thereto” (VANDERBILT UNIVERSITY, published 2022).

For this assay, the target named is H3 HA A/Hong Kong/1/1968 (H3N2), recombinant soluble trimer (influenza A virus, UniProt Q91MA7 17-530).

B1: rFluA-20 heavy chain mutant D98A (antibody, V domains shown)
VH: QVQLQESGPGLVKPSETLSLTCSVSGVSVTSDIYYWTWIRQPPGKGLEWIGYIFYNGDTNYNPSLKSRVTMSIDTSKNEFSLRLTSVTAADTAVYFCARGTEALGYCSSGSCPNHWGQGTLVTVSS
VL: DIQMTQSPSSLSASIGDRVTITCRPSQNIRSFLNWFQHKPGKAPKLLIYAASNLQSGVPSRFSGSGSGTEFTLTIRSLQPEDFATYYCQQSYNTPPTFGQGTKVEIK
With B1, the binding result was “no binding (tested: 10 µg/mL)”.
